These results are taken from PMC9426499, “The Specificity of ParR Binding Determines the Incompatibility of Conjugative Plasmids in Clostridium perfringens” (2018).

For this assay, the target named is ParRC(pCW3) (Clostridium perfringens (plasmid pCW3)). Nature of the assay: AUC.

As for ParRC(pCW3) (natural protein), the stoichiometry N (commonly the number of molecules, sites or subunits per partner or assembly) is 4.
